PubChem BioAssay AID504761 | Drosophila RNAi Screening Center – 2011

- Assay: 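Fly genes whose silencing reduces dengue virus type 2 infection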 (primary screen)
- System: D.Mel-2 cells from Drosophila
- Reagent: long dsRNA against Drosophila genes
- Conditions: infection with dengue virus type 2; dose and infection time not stated
- Read-out: 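Cells stained for dengue envelope protein and imaged; percent of infected cells per well on duplicate plates, ranked by infection, with stained nuclei counted for cell number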
- Reading the numbers: infection score: higher = more virus-infected cells; cell count: higher = more cells in the well
- Rule for the call: 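Very low infection ranking in both replicate wells (chance probability at most 0.065), then a retest showing infection dropped 1.5-fold or more at p below 0.05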
- Calls: active = confirmed: knock-down lowers infection; inactive = not picked or not confirmed
The deposit covers about 22,000 reagents; shown is an unselected part of those that have a named target and a result. Over the whole deposit, 116 (0.52%) got an active call. 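Calls depend on retest data that are not deposited; infection was ranked per plate without normalising between plates; the unit of the infection score is not given.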 The raw values are shown without normalisation. Names joined by + are all predicted targets of the reagent. Not stated in the record: the amount of reagent, the time to read-out.

| gene knocked down | amplicon | infection score, replicate 1 | infection score, replicate 2 | cell count, replicate 1 | cell count, replicate 2 | Call |
| --- | --- | --- | --- | --- | --- | --- |
| CG31100 | DRSC14453 | 1.56 | 3.74 | 6397 | 6818 | inactive |
| CG31100 | DRSC14455 | 1.61 | 10 | 6215 | 6533 | inactive |
| Ldsdh1 | DRSC18219 | 2.24 | 3.44 | 6459 | 6288 | inactive |
| Ldsdh1 | DRSC26664 | 3.38 | 5.73 | 5951 | 6091 | inactive |
| CG17807 | DRSC04296 | 10.3 | 32.3 | 6457 | 2516 | inactive |
| CG17807 | DRSC26388 | 5.48 | 2.89 | 6096 | 6343 | inactive |
| CG13154 | DRSC06279 | 9.08 | 7.53 | 6005 | 6629 | inactive |
| CtsF | DRSC12056 | 1.92 | 0.47 | 6516 | 6776 | inactive |
| CtsF | DRSC12195 | 3.65 | 8.86 | 6584 | 6410 | inactive |
| CtsF | DRSC12196 | 6.85 | 1.73 | 6496 | 7289 | inactive |
| ScsbetaA | DRSC14446 | 8.54 | 4.94 | 5705 | 6322 | inactive |
| ScsbetaA | DRSC27770 | 1.93 | 7.08 | 6675 | 6711 | inactive |
| CG13082 | DRSC02186 | 12.6 | 2.84 | 5668 | 879 | inactive |
| CG13082 | DRSC26734 | 8.76 | 7.85 | 6096 | 7008 | inactive |
| CG15882 | DRSC19735 | 1.07 | 0.91 | 6260 | 6128 | inactive |
| Or33b | DRSC03387 | 8.53 | 19 | 5966 | 5332 | inactive |
| CG5937 | DRSC18392 | 6.79 | 2.92 | 4949 | 5984 | inactive |
| CG5937 | DRSC26696 | 3.52 | 2.01 | 6081 | 6132 | inactive |
| CG7548 | DRSC10874 | 1.97 | 2.24 | 6501 | 6377 | inactive |
| CG7548 | DRSC29043 | 13.1 | 0.94 | 1786 | 531 | inactive |
| CG3862 | DRSC00631 | 3.48 | 1.11 | 6233 | 6152 | inactive |
| CG3862 | DRSC28505 | 14.6 | 11.3 | 3733 | 4225 | inactive |
| Jhbp16 | DRSC15039 | 4.37 | 0.54 | 6566 | 6511 | inactive |
| Zasp52 | DRSC06269 | 8.96 | 17.7 | 6151 | 5943 | inactive |
| Zasp52 | DRSC07121 | 7.72 | 11.9 | 7216 | 6308 | inactive |
| Ephrin | DRSC17165 | 10.4 | 2.29 | 5458 | 5625 | inactive |
| trc | DRSC11406 | 8.54 | 15.4 | 6231 | 5907 | inactive |
| trc | DRSC29426 | 7.58 | 18.9 | 5076 | 3947 | inactive |
| Yod1 | DRSC10433 | 11.4 | 9.6 | 6647 | 6124 | inactive |
| Yod1 | DRSC27122 | 11.5 | 9.77 | 6777 | 6298 | inactive |
| CG14960 | DRSC08419 | 3.13 | 3.61 | 6381 | 6205 | inactive |
| Fum1 | DRSC18344 | 12 | 6.76 | 5898 | 3372 | active |
| Fum1 | DRSC27406 | 7.23 | 14.8 | 6513 | 5700 | inactive |
| slv | DRSC07685 | 3.57 | 9.45 | 6356 | 2202 | inactive |
| CG1946 | DRSC06804 | 33.2 | 12.8 | 5046 | 4633 | inactive |
| CG1946 | DRSC28499 | 17.8 | 13.4 | 5755 | 4117 | inactive |
| RN-tre | DRSC07521 | 25.1 | 5.82 | 6068 | 6478 | inactive |
| RN-tre | DRSC28214 | 2.21 | – | 587 | 359 | inactive |
| LSm1 | DRSC04458 | 4.17 | 16.8 | 1390 | 4806 | inactive |
| Zfrp8 | DRSC04352 | 10.9 | 15.3 | 6378 | 4030 | inactive |
| ppk23 | DRSC20110 | 2.19 | 2.38 | 6613 | 6483 | inactive |
| ppk23 | DRSC26441 | 0.71 | 1.04 | 6478 | 6834 | inactive |
| CG10479 | DRSC23395 | 4.9 | 7.41 | 5610 | 5598 | inactive |
| AOX3 | DRSC15955 | 18 | 12.7 | 6354 | 6603 | inactive |
| bcd + CR14578 | DRSC20984 | 1.36 | 2.02 | 6534 | 6571 | inactive |
| Gale | DRSC08234 | 6.11 | 8.63 | 6335 | 6291 | inactive |
| CG30279 (retired record) | DRSC22417 | 3.28 | 3.89 | 5848 | 6452 | inactive |
| CG30279 (retired record) | DRSC27722 | 12.8 | 16.8 | 6406 | 6585 | inactive |
| CG32199 | DRSC09990 | 5.79 | 1.44 | 6394 | 6397 | inactive |
| CG10395 | DRSC04840 | 20.9 | 39.1 | 6140 | 4652 | inactive |
| CG10395 | DRSC26811 | 9.43 | 7.38 | 6901 | 6547 | inactive |
| CG11865 | DRSC01872 | 8.91 | 4.64 | 3502 | 6531 | inactive |
| CG11865 | DRSC28173 | 12.4 | 14.3 | 6761 | 5242 | inactive |
| CG14075 | DRSC10080 | 6.12 | 2.63 | 6751 | 6891 | inactive |
| CG6938 | DRSC10752 | 3.17 | 2.47 | 6248 | 6512 | inactive |
| CG6938 | DRSC28621 | 3.82 | 7.58 | 2595 | 1834 | inactive |
| Ubi-p63E | DRSC22016 | 6.34 | 2.57 | 6882 | 6876 | inactive |
| Efr | DRSC18322 | 2.26 | 2.73 | 6272 | 6222 | inactive |
| Efr | DRSC26945 | 12.3 | 5.6 | 6050 | 6338 | inactive |

Taken from above.
Entry of AOX3 [DRSC15955] in “infection score, replicate 2”: 12.7
Result of ppk23 [DRSC20110] in “cell count, replicate 1”: 6613
CG10479 [DRSC23395], Call → inactive
For “cell count, replicate 1”, Yod1 [DRSC27122] is entered as 6777
RN-tre [DRSC07521], infection score, replicate 1 → 25.1
Entry for CG10395 [DRSC26811] in “infection score, replicate 1”: 9.43
